# Assay: peptide synthesis
# Settings: conjugation step
substance,measurement,value
HdAEGTFTSDL SKQNleEEEAVR LFIEWLKQGG PSSGAPPPC-NH2,conjugation yield,70-90%
